The results in this text go back to patent US20250332276A1, “Inhibitors of Molluscum Contagiosum Infection and Methods Using the Same” (priority 2022, published 2025).

The structures appear in SMILES notation.

The assay has as its system mD4-VV surrogate virus. The assay is described as follows: microbe, parasite or virus in culture. In kind it is cell-based, vaccinia virus (VV). As to conditions: Orthopoxvirus vaccinia, read-out: EC50 (μM), antiviral mD4/VV activity.
Take `CCC(C(=O)Nc1sc(C(=O)NCCOCCNC(=O)[C@@H](NC(=O)[C@@H](N)C(C)C)C(C)C)c(C)c1C(=O)OC)c1ccc(F)cc1` (stereo partly drawn) [Compound 49, methyl 5-((2-(2-((S)-2-((S)-2-amino-3-methylbutanamido)-3-methylbutanamido)ethoxy)ethyl)carbamoyl)-2-(2-(4-fluorophenyl)butanamido)-4-methylthiophene-3-carboxylate]: the EC50 was 33.4 µM.

`CCC(C(=O)Nc1sc(C(N)=O)c(C)c1C(=O)OC)c1ccc(C#N)cc1` (stereo not shown) [Compound 54, methyl 5-carbamoyl-2-(2-(4-cyanophenyl)butanamido)-4-methylthiophene-3-carboxylate]: the EC50 was determined as 42 µM.

With `CCC(C(=O)Nc1sc(C(=O)NCCN)c(C)c1C(=O)OC)c1ccc2c(c1)OCO2` (stereo not shown) [Compound 55, methyl 5-((2-aminoethyl)carbamoyl)-2-(2-(benzo[d][1,3]dioxol-5-yl)butanamido)-4-methylthiophene-3-carboxylate], the EC50 turned out to be 12.3 µM.

Regarding `CCC(C(=O)Nc1sc(C(=O)NCCNC(=O)[C@@H](NC(=O)[C@@H](NC(=O)[C@@H](N)C(C)C)C(C)C)C(C)C)c(C)c1C(=O)OC)c1ccc2c(c1)OCO2` (stereo partly drawn) [Compound 57, methyl 5-((2-((S)-2-((S)-2-((S)-2-amino-3-methylbutanamido)-3-methylbutanamido)-3-methylbutanamido)ethyl)carbamoyl)-2-(2-(benzo[d][1,3]dioxol-5-yl)butanamido)-4-methylthiophene-3-carboxylate], the EC50 was roughly 25 µM.

Regarding `CCC(C(=O)Nc1sc(C(=O)NCCN)c(C)c1C(=O)OC)c1cc(F)cc(F)c1` (stereo not shown) [Compound 58, methyl 5-((2-aminoethyl)carbamoyl)-2-(2-(3,5-difluorophenyl)butanamido)-4-methylthiophene-3-carboxylate], the EC50 stood at 8.7 µM.

Consider `CCC(C(=O)Nc1sc(C(=O)NCCNC(=O)[C@@H](NC(=O)[C@@H](NC(=O)[C@@H](N)C(C)C)C(C)C)C(C)C)c(C)c1C(=O)OC)c1cc(F)cc(F)c1` (stereo partly drawn) [Compound 60, methyl 5-((2-((S)-2-((S)-2-((S)-2-amino-3-methylbutanamido)-3-methylbutanamido)-3-methylbutanamido)ethyl)carbamoyl)-2-(2-(3,5-difluorophenyl)butanamido)-4-methylthiophene-3-carboxylate], for which the EC50 is 3.5 µM.

On to `CCC(C(=O)Nc1sc(C(=O)NCCN)c(C)c1C(=O)OC)c1ccc(C#N)cc1` (stereo not shown) [Compound 61, methyl 5-((2-aminoethyl)carbamoyl)-2-(2-(4-cyanophenyl)butanamido)-4-methylthiophene-3-carboxylate], for which the EC50 came to 36.1 µM.

On to `CCC(C(=O)Nc1sc(C(N)=O)c(C)c1C(=O)OC)c1ccc(F)c(F)c1` (stereo not shown) [Compound 69, methyl 5-carbamoyl-2-(2-(3,4-difluorophenyl)butanamido)-4-methylthiophene-3-carboxylate], for which the EC50 turned out to be 4 µM.

As for `CCC(C(=O)Nc1sc(C(N)=O)c(C)c1C(=O)OC)c1cccc(C)c1` (stereo not shown) [Compound 70, methyl 5-carbamoyl-4-methyl-2-(2-(m-tolyl)butanamido)thiophene-3-carboxylate], the EC50 amounted to 6 µM.

As for `CCC(C(=O)Nc1sc(C(N)=O)c(C)c1C(=O)OC)c1cccc(C(F)(F)F)c1` (stereo not shown) [Compound 71, methyl 5-carbamoyl-4-methyl-2-(2-(3-(trifluoromethyl)phenyl)butanamido)thiophene-3-carboxylate], the EC50 was determined as 4.1 µM.

Turning to `CCC(C(=O)Nc1sc(C(=O)NCCN)c(C)c1C(=O)OC)c1ccc(F)c(F)c1` (stereo not shown) [Compound 72, methyl 5-((2-aminoethyl)carbamoyl)-2-(2-(3,4-difluorophenyl)butanamido)-4-methylthiophene-3-carboxylate], the EC50 is 7.8 µM.

Take `CCC(C(=O)Nc1sc(C(=O)NCCNC(=O)[C@@H](NC(=O)[C@@H](NC(=O)[C@@H](N)C(C)C)C(C)C)C(C)C)c(C)c1C(=O)OC)c1ccc(F)c(F)c1` (stereo partly drawn) [Compound 74, methyl 5-((2-((S)-2-((S)-2-((S)-2-amino-3-methylbutanamido)-3-methylbutanamido)-3-methylbutanamido)ethyl)carbamoyl)-2-(2-(3,4-difluorophenyl)butanamido)-4-methylthiophene-3-carboxylate]: the EC50 was found to be 1.1 µM.

As to `CCC(C(=O)Nc1sc(C(=O)NCCN)c(C)c1C(=O)OC)c1cccc(C)c1` (stereo not shown) [Compound 75, methyl 5-((2-aminoethyl)carbamoyl)-4-methyl-2-(2-(m-tolyl)butanamido)thiophene-3-carboxylate], the EC50 was 2.5 µM.

`CCC(C(=O)Nc1sc(C(=O)NCCNC(=O)[C@@H](NC(=O)[C@@H](NC(=O)[C@@H](N)C(C)C)C(C)C)C(C)C)c(C)c1C(=O)OC)c1cccc(C)c1` (stereo partly drawn) [Compound 77, methyl 5-((2-((S)-2-((S)-2-((S)-2-amino-3-methylbutanamido)-3-methylbutanamido)-3-methylbutanamido)ethyl)carbamoyl)-4-methyl-2-(2-(m-tolyl)butanamido)thiophene-3-carboxylate]: the EC50 amounted to 9.1 µM.

`CCC(C(=O)Nc1sc(C(=O)NCCN)c(C)c1C(=O)OC)c1cccc(C(F)(F)F)c1` (stereo not shown) [Compound 78, methyl 5-((2-aminoethyl)carbamoyl)-4-methyl-2-(2-(3-(trifluoromethyl)phenyl)butanamido)thiophene-3-carboxylate]: the EC50 amounted to 2.5 µM.

For the molecule `CCC(C(=O)Nc1sc(C(N)=O)c(C)c1C(=O)OC)c1ccccc1C` (stereo not shown) [Compound 84, methyl 5-carbamoyl-4-methyl-2-(2-(o-tolyl)butanamido)thiophene-3-carboxylate], the EC50 worked out at 26.2 µM.

For the molecule `CCC(C(=O)Nc1sc(C(=O)NCCN)c(C)c1C(=O)OC)c1ccccc1C` (stereo not shown) [Compound 85, methyl 5-((2-aminoethyl)carbamoyl)-4-methyl-2-(2-(o-tolyl)butanamido)thiophene-3-carboxylate], the EC50 came out at 20.5 µM.

Consider `CCC(C(=O)Nc1sc(C(=O)NCCNC(=O)[C@@H](NC(=O)[C@@H](NC(=O)[C@@H](N)C(C)C)C(C)C)C(C)C)c(C)c1C(=O)OC)c1ccccc1C` (stereo partly drawn) [Compound 87, methyl 5-((2-((S)-2-((S)-2-((S)-2-amino-3-methylbutanamido)-3-methylbutanamido)-3-methylbutanamido)ethyl)carbamoyl)-4-methyl-2-(2-(o-tolyl)butanamido)thiophene-3-carboxylate], for which the EC50 amounted to 30.6 µM.

On to `CCC(C(=O)Nc1sc(C(N)=O)c(C)c1C(=O)OC)c1ccccc1C(F)(F)F` (stereo not shown) [Compound 89, methyl 5-carbamoyl-4-methyl-2-(2-(2-(trifluoromethyl)phenyl)butanamido)thiophene-3-carboxylate], for which the EC50 worked out at 12.5 µM.

Consider `CCC(C(=O)Nc1sc(C(=O)NCCNC(=O)[C@@H](NC(=O)[C@@H](NC(=O)[C@@H](N)C(C)C)C(C)C)C(C)C)c(C)c1C(=O)OC)c1ccccc1C(F)(F)F` (stereo partly drawn) [Compound 91, methyl 5-((2-((S)-2-((S)-2-((S)-2-amino-3-methylbutanamido)-3-methylbutanamido)-3-methylbutanamido)ethyl)carbamoyl)-4-methyl-2-(2-(2-(trifluoromethyl)phenyl)butanamido)thiophene-3-carboxylate], for which the EC50 was found to be 2.4 µM.

On to `CCC(C(=O)Nc1sc(C(=O)N[C@@H](C(=O)N[C@@H](C(=O)OC(C)(C)C)C(C)C)C(C)C)c(C)c1C(=O)OC)c1ccc(F)cc1` (stereo partly drawn) [Compound 92, methyl 5-(((R)-1-(((R)-1-(tert-butoxy)-3-methyl-1-oxobutan-2-yl)amino)-3-methyl-1-oxobutan-2-yl)carbamoyl)-2-(2-(4-fluorophenyl)butanamido)-4-methylthiophene-3-carboxylate], for which the EC50 stood at 35.5 µM.

In the case of `CCC(C(=O)Nc1sc(C(=O)N[C@@H](C(=O)N[C@@H](C(=O)O)C(C)C)C(C)C)c(C)c1C(=O)OC)c1ccc(F)cc1` (stereo partly drawn) [Compound 93, (5-(2-(4-fluorophenyl)butanamido)-4-(methoxycarbonyl)-3-methylthiophene-2-carbonyl)-D-valyl-D-valine], the EC50 worked out at 13.6 µM.
